Experimental data: PubChem BioAssay AID624099 (ICCB-Longwood, 2012)
Screen: 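Host factors E2 relies on to silence an HPV18 LCR reporter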 (primary screen). System: human C33A cervical carcinoma cells (HPV-negative) stably expressing BPV1 E2 and an HPV18 LCR luciferase reporter. Knock-down reagent: siRNA pool against human genes, 40 nM. Timing: 72 h. Measured: 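HPV18 LCR reporter light per well, converted to plate-wise z-scores that exclude control wells, and averaged over triplicate plates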. Direction: mean z-score and z-score: higher = stronger reporter signal, weaker E2 silencing. Hit rule: 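Hit if mean z-score reaches 2 and two or more of three replicate z-scores also reach 2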.
This is one part, drawn at random, of about 21,000 deposited reagents. Over the whole deposit, 497 (2.4%) are marked active. 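Higher z means weaker E2 silencing; only reporter increases were scored, and knock-downs that hurt cell survival may mask genuine repressor factors.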 Entries without a mark were called inactive. Reagents against one gene are numbered here.

gene | reagent | mean z-score | z-score, replicate A | z-score, replicate B | z-score, replicate C
SPDYE3 (speedy/RINGO cell cycle regulator family member E3) | 1 | -1.43 | -1.33 | -1.76 | -1.2
RAB3IL1 (RAB3A interacting protein like 1) | 1 | -0.71 | -0.86 | -0.72 | -0.54
RPS3AP47 (RPS3A pseudogene 47) | 1 | 0.69 | 1.07 | 0.58 | 0.42
LOC400125 (retired record) | 1 | 0.45 | 0.42 | 0.28 | 0.65
IFI44L (interferon induced protein 44 like) | 1 | 1.18 | 1.25 | 1.25 | 1.03
TOGARAM1 (TOG array regulator of axonemal microtubules 1) | 1 | 1.24 | 0.93 | 1.05 | 1.73
SYT4 (synaptotagmin 4) | 1 | -0.39 | -0.28 | -0.47 | -0.43
MARK2P10 (MARK2 pseudogene 10) | 1 | -0.68 | -0.75 | -0.7 | -0.58
MARK2P10 (MARK2 pseudogene 10) | 2 | -1.26 | -1.52 | -1.04 | -1.23
KIR2DS4 | 1 | 1.41 | 1.45 | 1.12 | 1.65
LOC388345 (retired record) | 1 | 0.41 | 0.16 | 0.2 | 0.88
RPH3A (rabphilin 3A) | 1 | -2.33 | -2.03 | -2.5 | -2.47
LIN7B (lin-7 cell polarity scaffold B) | 1 | 1.05 | 1.23 | 1.21 | 0.7
QSOX1 (quiescin sulfhydryl oxidase 1) | 1 | -0.52 | -0.65 | -0.49 | -0.43
QSOX1 (quiescin sulfhydryl oxidase 1) | 2 | -0.01 | -0.56 | 0.34 | 0.2
ZKSCAN2 (zinc finger with KRAB and SCAN domains 2) | 1 | -0.05 | -0.05 | 0.16 | -0.26
PGF (placental growth factor) | 1 | 0.01 | -0.04 | -0.06 | 0.12
STAR (steroidogenic acute regulatory protein) | 1 | -0.15 | -0.34 | -0.1 | -0.01
LCE3D (late cornified envelope 3D) | 1 | -0.87 | -0.51 | -0.94 | -1.15
PARS2 (prolyl-tRNA synthetase 2, mitochondrial) | 1 | -1.08 | -1.17 | -1.16 | -0.92
FLJ35700 (retired record) | 1 | 0.36 | 0.36 | 0.25 | 0.46
EXOSC5 (exosome component 5) | 1 | 0.15 | 0.08 | 0.11 | 0.27
IER5 (immediate early response 5) | 1 | -0.85 | -0.54 | -1.12 | -0.87

No new results follow: 3 of the entries above.
gene | reagent | mean z-score | z-score, replicate A | z-score, replicate B | z-score, replicate C
LOC388345 (retired record) | 1 | 0.41 | 0.16 | 0.2 | 0.88
RPH3A (rabphilin 3A) | 1 | -2.33 | -2.03 | -2.5 | -2.47
LIN7B (lin-7 cell polarity scaffold B) | 1 | 1.05 | 1.23 | 1.21 | 0.7
